The text below walks through data of PubChem BioAssay AID1626 (SRMLSC, 2009).

This assay relates to M. tuberculosis H37Rv growth inhibition. The assay can be described thus: M. tuberculosis H37Rv growth inhibitors, H37Rv strain (AID 1626). As to conditions: measured here: Vero cell cytotoxicity.
Usually CC50 stands for the concentration that lowers cell viability or growth by half. Read a high CC50 as lower toxicity to the cells. `O=c1[nH]c2ccccc2n1C1CCN(CCCC(c2ccc(F)cc2)c2ccc(F)cc2)CC1`: the CC50 is 14.2 µM.

In turn, `Cc1cccc(CN2CCN(C(c3ccccc3)c3ccc(Cl)cc3)CC2)c1` (stereo not given) returned a CC50 greater than 40 µM.

`Cc1cccc(NC(=O)c2ccc([N+](=O)[O-])o2)c1` yielded a cytotoxic concentration (CC50) of 3.71 µM.

For `C1CCC(C(CC2CCCCN2)C2CCCCC2)CC1` (stereo not given), the CC50 is 15 µM.

The molecule `O=C(Nc1ccc(Cl)cn1)c1ccc([N+](=O)[O-])o1` had a CC50 of 8.36 µM.
